# Test system: perfringolysin O (pfoA) toxin secreted by C. perfringens CP4.6
# Assay: Hemolysis bioassay on sheep blood agar with cell-free supernatant
# Assay type: cell-based, Clostridium perfringens
# Conditions: 1, 10 and 50 μM fengycin, 6 h culture, FIG. 9A
substance,measurement,value
fengycin,pfoA gene expression (PFO production),inhibited pfoA gene expression in a concentration-dependent manner

# Source: patent publication US20210283199A1 (priority 2020, published 2021)
